# From patent US20170224780A1 (priority 2014, published 2017)
# Test system: ovaries from 12-day-old neonatal mice
smiles,measurement,setting,value
NP(=O)(O)N(CCCl)CCCl,"numbers of primordial follicles, PM alone compared with untreated ovaries","PM for 4 hours, then medium alone, p<0.01, FIG. 7",significantly reduced numbers
same,"ratio of growing to dormant follicles, PM alone","day 4 and 7, compared among treatment groups, FIG. 8",greatest
